{"source": "patent US20230303667A1", "about": "(EMORY UNIVERSITY, published 2023)", "binders": {"B1": {"name": "2.1.7G07 (antibody, V domains shown)", "VH": "EVQLVESGGGLVQPGGSLRLSCAASGFAFSTYAMSWVRQAPGKGLEWVSAITGSGYSTYYADSVKGRFTISGDNSKNTLYLQMNSLRAEDTALYYCAKVGEYYDFWSGYSPFDSWGQGTLVTVSS", "VL": "EIVLTQSPGTLSLSPGERATLSCRASQSVSSSYLAWYQQKPGQAPRLLIYGAFNRATGIPDRFSGSGSGTDFTLTISRLEPEDFAVYYCQQYGRSPFTFGPGTKVDIK"}}, "molecular_target": "T1, Ebola Zaire (Kikwit strain) glycoprotein (Ebola Zaire (Kikwit strain), UniProt P87666 33-676)", "T1 sequence": "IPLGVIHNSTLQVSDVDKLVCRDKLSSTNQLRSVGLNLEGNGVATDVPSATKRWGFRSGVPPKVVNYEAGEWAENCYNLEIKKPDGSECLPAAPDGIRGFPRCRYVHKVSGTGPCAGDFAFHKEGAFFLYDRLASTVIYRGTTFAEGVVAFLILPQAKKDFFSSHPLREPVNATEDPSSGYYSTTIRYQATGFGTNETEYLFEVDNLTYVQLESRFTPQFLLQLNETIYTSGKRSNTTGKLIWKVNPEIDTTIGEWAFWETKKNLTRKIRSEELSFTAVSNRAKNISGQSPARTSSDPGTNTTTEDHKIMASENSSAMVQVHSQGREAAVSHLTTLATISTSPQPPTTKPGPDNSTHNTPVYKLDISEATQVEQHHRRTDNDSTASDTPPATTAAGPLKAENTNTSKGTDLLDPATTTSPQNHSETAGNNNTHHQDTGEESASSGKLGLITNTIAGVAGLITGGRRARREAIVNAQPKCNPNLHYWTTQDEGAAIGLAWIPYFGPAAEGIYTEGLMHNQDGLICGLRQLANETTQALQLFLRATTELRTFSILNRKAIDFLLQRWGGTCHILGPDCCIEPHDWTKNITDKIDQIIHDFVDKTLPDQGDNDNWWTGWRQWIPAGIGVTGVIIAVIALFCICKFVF", "test": "cell-based or functional assay"}
{"binder": "B1", "values": [{"measurement": "PRNT50 (ug/ml) for Ebola Zaire (Kikwit strain)", "result": 1.57, "unit": "µg/mL"}]}
